Measured values taken from paper PMC5803236 (Scientific Reports, 2018).

Assays:
[1] = target: hemagglutinin (HA) of H5N8 A/Duck/Korea/Gochang1/2014 (HPAI) (Influenza A virus (A/breeder duck/Korea/Gochang1/2014(H5N8)), UniProt W8P1W5); assay: hemagglutination inhibition assay, whole virus with chicken red blood cells; conditions: 4 HAU virus, 1% chicken RBC, room temperature; lowest concentration with complete inhibition; competes with receptor sialic acid
[2] = target: hemagglutinin (HA) of H1N1 A/Swine/Iowa/15/30 (Influenza A virus (A/swine/Iowa/15/1930(H1N1)), UniProt Q9WCD9); assay: as above; conditions: 4 HAU virus, 1% chicken RBC, room temperature; lowest concentration with complete inhibition; competes with receptor sialic acid

SMILES | MIC [1] [mM] | MIC [2] [mM]
CC(=O)N[C@H]1[C@H]([C@H](O)[C@H](O)CO)O[C@@](OC[C@H]2O[C@@H](O[C@H]3[C@H](O)[C@@H](O)C(O)O[C@@H]3CO)[C@H](O)[C@@H](O)[C@H]2O)(C(=O)O)C[C@@H]1O (stereo partly drawn) [6′-sialyllactose] | > 200 | –
CC(=O)N[C@H]1[C@H]([C@H](O)[C@H](O)CO)O[C@@](O[C@H]2[C@@H](O)[C@@H](CO)O[C@@H](O[C@H]3[C@H](O)[C@@H](O)C(O)O[C@@H]3CO)[C@@H]2O)(C(=O)O)C[C@@H]1O (stereo partly drawn) | 12.5 (≈ 7.92 mg/mL) | 31.25 (≈ 19.8 mg/mL)

≈ marks a conversion by molar mass, not a printed value.
